Results taken from patent publication US20220117266A1, “NICKEL CHELATION THERAPY” (priority 2019, published 2022).

Experiment: FTICR-MS of DMG-metal complexes
Format: physicochemical
Settings: aqueous DMG 1.6 mM, metal 0.16 mM

## CC(=NO)C(C)=NO [DMG, dimethylglyoxime]
  DMG coordination with Fe, Zn or Se: does not coordinate
